A value given as a limit tells only on which side of the number the result lay.

In series [1] the test system is HCV replicon H/FL-Neo, genotype 1a full length construct, in Huh7 cells. As to the kind of experiment: Secondary HCV replicon cell assay genotype 1a, antiviral activity. It counts as cell-based, hepatitis C virus (HCV). The following applies: CC50/EC50. How it is done: (§1) Antiviral activity of test compounds was assessed in a 3-day assay using the stably-expressing HCV replicon cell line, AVA5 (sub-genomic CONI, genotype 1b) [Korba, B. E. et al. Antiviral Res. 77, 56-63 (2008); Blight et al., Science 290, 1972-1974 (2000)] maintained as sub-confluent cultures on 96-well plates as previously described [Okuse et al., Antiviral Research 65, 23-34 (2005)]. Antiviral activity was determined by blot hybridization analysis of intracellular HCV RNA (normalized to the level of cellular B-actin RNA in each culture sample) and cytotoxicity was assessed by neutral red dye uptake after 3 days of treatment. Additional studies were performed using Huh7 cells containing another HCV replicon, H/FL-Neo, a genotype la full length construct [Blight et al., J. Virol. 77, 3181-3190 (2003)]. For studies involving human serum, standard culture medium (which contains 10% fetal bovine serum) and assay conditions were maintained.
(§2) EC50, EC90 and CC50 values (±standard deviations [S.D.]) were calculated by linear regression analysis using data combined from all treated cultures (Korba, B. E. et al. Antiviral Res. 77, 56-63 (2008)). […] Selectivity index (S.I.) was calculated as CC50/EC90 for HBV assays and CC50/EC50 for HCV assays.
On the technique in general: In antiviral work, replicon cells carry a viral genome segment that copies itself.

For series [2], the system named is HCV replicon cell line, AVA5 (sub-genomic CONI, genotype 1b). Description: Primary HCV replicon cell assay, antiviral activity (intracellular HCV RNA, blot hybridization). It counts as cell-based, hepatitis C virus (HCV). The settings on record: CC50/EC50. The procedure:
as §1, §2

For series [3] the test system is unchanged. Description: Secondary HCV replicon cell assay genotype 1b, antiviral activity. It counts as cell-based, hepatitis C virus (HCV). The settings on record: CC50/EC50. How it is done:
as §1, §2

Series [4] concerns HBV virion in 2.2.15 cells. As to the kind of experiment: HBV antiviral assay in 2.2.15 cells, virion (VIR) HBV DNA. It counts as cell-based, hepatitis B virus (HBV). The settings on record: CC50/EC90, virion.
For series [5], the system named is HBV replication intermediates in 2.2.15 cells. Description: HBV antiviral assay in 2.2.15 cells, replication intermediates (RI) HBV DNA. The following applies: CC50/EC90, replication intermediates. It counts as cell-based, hepatitis B virus (HBV).

In the case of `O=C(Nc1cccc(F)c1)c1ccccc1O` [Compound 3, N-(3-fluorophenyl)-2-hydroxybenzamide], the SI in series [1] is on record as 23.5; in series [2] it was above 124.0; in series [3], 18.3.

Take `O=C(Nc1ccccc1Br)c1ccccc1O` [Compound 4, N-(2-bromophenyl)-2-hydroxybenzamide]: in series [2], the SI was above 17.0.

Consider `O=C(Nc1ccc([N+](=O)[O-])cc1Cl)c1cc(Cl)ccc1O` [Compound 6, 5-chloro-N-(2-chloro-4-nitrophenyl)-2-hydroxybenzamide], for which the SI in series [1] was 6.9; in series [2] it was 35.0; in series [3], 6.5.

As to `O=C(Nc1cccc([N+](=O)[O-])c1)c1ccccc1O` [Compound 7, 2-hydroxy-N-(3-nitrophenyl)benzamide], in series [2], the SI is given as 31.0.

Compound `Cc1cccc(C(=O)Nc2cccc(F)c2)c1O` [Compound 9, N-(3-fluorophenyl)-2-hydroxy-3-methylbenzamide] returned an SI in series [2] of 21.0.

In the case of `Cc1cccc(C(=O)Nc2cccc(Cl)c2)c1O` [Compound 14, N-(3-chlorophenyl)-2-hydroxy-3-methylbenzamide], the SI in series [2] was 13.0.

For the compound `O=C(O)c1ccccc1C(=O)Nc1ccccc1Cl` [Compound 15, 2-(2-chlorophenylcarbamoyl)benzoic acid], the SI in series [2] is on record as 27.0.

In the case of `Cc1cccc(C(=O)Nc2ccc(Cl)cc2)c1O` [Compound 20, N-(4-chlorophenyl)-2-hydroxy-3-methylbenzamide], the SI in series [2] is given as above 15.0.

Take `O=C(Nc1ccccc1Cl)c1ccccc1O` [Compound 23, N-(2-chlorophenyl)-2-hydroxybenzamide]: the SI in series [2] is 19.0.

In series [2], `CC(=O)Oc1ccccc1C(=O)Nc1cccc(F)c1` [Compound 24, 2-(3-fluorophenylcarbamoyl)phenyl acetate] gave an SI above 49.0.

For the compound `CC(=O)Oc1ccc(Cl)cc1C(=O)Nc1ccc([N+](=O)[O-])cc1Cl` [Compound 25, 4-chloro-2-(2-chloro-4-nitrophenylcarbamoyl)phenyl acetate], the SI in series [1] was 43.0; in series [2], 43.0; in series [3] it was 43.6.

`O=C(Nc1cccc(C(F)(F)F)c1)c1ccccc1O` [Compound 27, 2-hydroxy-N-(3-(trifluoromethyl)phenyl)benzamide] returned an SI in series [2] above 28.0.

As for `CC(=O)Oc1ccccc1C(=O)Nc1cc(C(F)(F)F)cc(C(F)(F)F)c1` [Compound 34, 2-(3,5-bis(trifluoromethyl)phenylcarbamoyl)phenyl acetate], the values for the SI in series [1], in series [2] and in series [3] were 9.9, 9.7 and 10.5, respectively.

Consider `CC(=O)Oc1ccccc1C(=O)Nc1ccc(Cl)cc1` [Compound 38, 2-(4-chlorophenylcarbamoyl)phenyl acetate], for which, in series [4], the “SI (VIR)” value is reported as above 11.0.

`CC(=O)Oc1ccccc1C(=O)Nc1ccc(Br)cc1` [Compound 39, 2-(4-bromophenylcarbamoyl)phenyl acetate]: the “SI (RI)” value in series [5] is above 15.0. In series [4], the “SI (VIR)” value was above 33.0.

Turning to `CC(=O)Oc1ccccc1C(=O)Nc1ccc(I)cc1` [Compound 40, 2-(4-iodophenylcarbamoyl)phenyl acetate], the “SI (RI)” value in series [5] is on record as above 30.0. Moreover, the “SI (VIR)” value in series [4] is given as above 83.0.

Take `O=C(Nc1cc(C(F)(F)F)ccc1Cl)c1ccccc1O` [Compound 41, N-(2-chloro-5-(trifluoromethyl)phenyl)-2-hydroxybenzamide]: the SI is given as 12.3 in series [1], 65.2 in series [2] and 17.5 in series [3]. Moreover, the “SI (VIR)” value in series [4] is listed as above 7.7.

On to `Cc1cc([N+](=O)[O-])c(Cl)cc1NC(=O)c1ccccc1O` [Compound 42, N-(5-chloro-2-methyl-4-nitrophenyl)-2-hydroxybenzamide], for which the “SI (RI)” value in series [5] is given as above 48.0. The “SI (VIR)” value in series [4] is recorded as above 141.0.

In the case of `COC(=O)c1ccc(NC(=O)c2ccccc2OC(C)=O)cc1` [Compound 44, methyl 4-(2-acetoxybenzamido)benzoate], the SI is listed as 24.8 in series [1], 75.9 in series [2] and 19.4 in series [3].

On to `O=C(Nc1ccc(OC(F)(F)C(F)F)cc1)c1ccccc1O` [Compound 49, 2-hydroxy-N-(4-(1,1,2,2-tetrafluoroethoxy)phenyl)benzamide], for which the SI in series [2] stood at 12.0.

Consider `O=C(Nc1ccc(C(F)(F)F)cc1)c1ccccc1O` [Compound 51, 2-hydroxy-N-(4-(trifluoromethyl)phenyl)benzamide], for which the “SI (VIR)” value in series [4] is recorded as above 4.8.

With `CC(=O)Oc1ccccc1C(=O)Nc1cc(C(F)(F)F)ccc1Cl` [Compound 52, 2-(2-chloro-5-(trifluoromethyl)phenylcarbamoyl)phenyl acetate], the “SI (VIR)” value in series [4] is 65.0.

For the compound `CC(=O)Oc1ccccc1C(=O)Nc1ccc(Cl)c([N+](=O)[O-])c1` [Compound 53, 2-(4-chloro-3-nitrophenylcarbamoyl)phenyl acetate], the “SI (VIR)” value in series [4] stood at 6.0.

With `CC(=O)Oc1ccccc1C(=O)Nc1cc([N+](=O)[O-])ccc1Cl` [Compound 54, 2-(2-chloro-5-nitrophenylcarbamoyl)phenyl acetate], the “SI (VIR)” value in series [4] worked out at 7.6.

As for `CC(=O)Oc1ccccc1C(=O)Nc1ccc(F)c(F)c1` [Compound 55, 2-(3,4-difluorophenylcarbamoyl)phenyl acetate], the “SI (VIR)” value in series [4] is reported as 5.5.

Consider `O=C(Nc1ncc([N+](=O)[O-])s1)c1ccccc1O` [TIZ, tizoxanide, reference compound], for which the “SI (RI)” value in series [5] is above 83.3. Also, the “SI (VIR)” value in series [4] was above 172.4.
